As usually defined, the Kd is the free concentration of one partner at which half of the binding sites on the other are occupied at equilibrium, for simple one-to-one binding.

In this assay the target is T1, purified recombinant glycosylated K-TM protein (human, UniProt Q69384 466-699, glycosylated).
T1 construct: K-TM subunit of HERV-K Env; One partner of the BLI was biotinylated and held on an SA chip; source: Hek293T cells (eukaryotic expression system), purified
T1 sequence: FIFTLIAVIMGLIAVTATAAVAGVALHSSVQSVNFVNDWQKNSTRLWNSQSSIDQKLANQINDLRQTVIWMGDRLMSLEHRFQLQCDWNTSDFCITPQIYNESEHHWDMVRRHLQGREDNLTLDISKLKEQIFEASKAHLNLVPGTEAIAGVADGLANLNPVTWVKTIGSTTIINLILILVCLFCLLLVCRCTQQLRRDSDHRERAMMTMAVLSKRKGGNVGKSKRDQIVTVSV
Put plainly: BLI; Octet R8; one protein biotinylated and immobilised on an SA chip (which one is not said), the other in twofold dilutions in PBST; association 200 s, dissociation 300 s. The following applies: both partners purified.

B1: glycosylated CD3ε protein (recombinant) (receptor)
chain: DGNEEMGGITQTPYKVSISGTTVILTCPQYPGSEILWQHNDKNIGGDEDDKNIGSDEDHLSLKEFSELEQSGYYVCYPRGSKPEDANFYLYLRARVCENCMEMDVMSVATIVIVDICITGGLLLLVYYWSKNRKAKAKPVTRGAGAGGRQRGQNKERPPPVPNPDYEPIRKGQRDLYSGLNQRRI
modifications: glycosylated
notes: CD3ε; nothing is said of the recombinant protein itself; source: eukaryotic expression system, purified
For the molecule B1, the Kd is 1.83 nM.
